Results of unrelated studies side by side (data: NIAID ChemDB).

Shared fields: growth or infection tests; species: HIV-1

Conditions beyond the fields shown may differ between rows.

structure | cell line | measure | method | strain or isolate | changes | value
CC(C)CN(CCC(O)CNc1cscc1S(=O)(=O)c1ccccc1)S(=O)(=O)c1ccccc1 | CEM | EC90 | p24 | IIIB | - | 1 µM
COc1cc(Cc2cnc(/N=C3\C(=O)N(CN4CCNCC4)c4ccc(C)cc43)nc2N)cc(OC)c1OC | MT-4 | EC50 | cytopathic effect | - | - | >94.2 µM
O=C(O[C@@H]1O[C@@H]2COC(=O)c3cc(O)c(O)c(O)c3-c3c(cc(O)c(O)c3O)C(=O)O[C@H]([C@H]1O)[C@@H]2O)c1cc(O)c(O)c(O)c1 | MT-4 | EC50 | cytopathic effect / MTT | IIIB | - | >25 µg/mL
O=C1Nc2ccc(Cl)cc2[C@@](C#CC2CC2)(C(F)(F)F)O1 | MT-4 | EC50 | - | - | K103N/Y181C | 0.0828 µM
O=C1CC2CCC1C1C(=O)N(CC(O)CN3CCN(c4ccccn4)CC3)C(=O)C21 | MT-4 | EC50 | MTT | - | - | >100 µM
CCc1nc([N+](=O)[O-])c(N2CCN(C(=O)c3ccc(Cl)cc3Cl)CC2)n1Cc1ccccc1 | MT-4 | EC50 | syncytia | IIIB | - | >14.6 µg/mL
N[C@@H](Cc1ccccc1)C(=O)C(F)(F)CN(Cc1ccccc1)S(=O)(=O)c1ccccc1 | CEM | EC90 | p24 | IIIB | - | 1 µM
O=C(O[C@@H]1O[C@@H]2COC(=O)c3cc(O)c(O)c(O)c3-c3c(cc(O)c(O)c3O)C(=O)O[C@H]2[C@H](OC(=O)c2cc(O)c(O)c(O)c2)[C@H]1OC(=O)c1cc(O)c(O)c(O)c1Oc1cc2c(c(O)c1O)Oc1cc(cc(O)c1O)C(=O)O[C@@H]1O[C@@H]3COC(=O)c4cc(O)c(O)c(O)c4-c4c(cc(O)c(O)c4O)C(=O)O[C@H]3[C@H](OC(=O)c3cc(O)c(O)c(O)c3)[C@H]1OC2=O)c1cc(O)c(O)c(O)c1 | MT-4 | EC50 | cytopathic effect / MTT | IIIB | - | >100 µg/mL
CCN(CC)CCCC(C)Nc1ccnc2cc(Cl)ccc12 | H9 | EC50 | p24 | - | - | <100 µM
CC1(C)C(N)=C(c2ccccc2)S(=O)(=O)N1Cc1ccccc1 | MT-4 | EC50 | cytopathic effect / MTT | IIIB | - | >125 µg/mL
O=C[C@H](OC(=O)c1cc(O)c(O)c(O)c1)[C@@H](OC(=O)c1cc(O)c(O)c(O)c1)[C@@H]1OC(=O)c2cc(O)c(O)c(O)c2-c2c(cc(O)c(O)c2O)C(=O)OC[C@H]1O | MT-4 | EC50 | cytopathic effect / MTT | IIIB | - | >25 µg/mL
COc1ccc(S(=O)(=O)N(CC(C)C)C[C@@H](O)CCN(CC2CCCC2)S(=O)(=O)c2nccs2)cc1 | CEM | EC50 | p24 | IIIB | - | <1 µM
O=CC(OC(=O)c1cc(O)c(O)c(O)c1Oc1cc2c(=O)oc3c(O)c(O)cc4c(=O)oc(c1O)c2c34)C(OC(=O)c1cc(O)c(O)c(O)c1)C1C(=O)Oc2cc(Oc3c(C(=O)O)cc(O)c(O)c3O)c(O)c(O)c2-c2c(cc(O)c(O)c2O)C(=O)OCC1O | MT-4 | EC50 | cytopathic effect / MTT | IIIB | - | >50 µg/mL
CCn1cc(C(=O)O)c(=O)c2c(F)c(N3CCN(CN4C(=O)/C(=N\c5ncc(Cc6cc(OC)c(OC)c(OC)c6)c(N)n5)c5cc(C)ccc54)C(C)C3)c(F)cc21 | MT-4 | EC50 | cytopathic effect | - | - | 28.4 µM
CC1CCN(CC(O)CN2C(=O)C3C4CCC(C(=O)C4)C3C2=O)CC1 | MT-4 | EC50 | MTT | - | - | >100 µM
O=C(O[C@@H]1O[C@@H]2COC(=O)c3cc(O)c(O)c(O)c3-c3c(cc(O)c(O)c3O)C(=O)O[C@H]2[C@H](OC(=O)c2cc(O)c(O)c(O)c2)[C@H]1OC(=O)c1cc(O)c(O)c(O)c1)c1cc(O)c(O)c(Oc2c(C(=O)O[C@H]3[C@H](OC(=O)c4cc(O)c(O)c(O)c4)O[C@@H]4COC(=O)c5cc(O)c(O)c(O)c5-c5c(cc(O)c(O)c5O)C(=O)O[C@H]4[C@@H]3OC(=O)c3cc(O)c(O)c(O)c3)cc(O)c(O)c2O)c1 | MT-4 | EC50 | cytopathic effect / MTT | IIIB | - | >100 µg/mL
CC1(C)C(N)=CS(=O)(=O)N1Cc1cccc(Cl)c1 | MT-4 | EC50 | cytopathic effect / MTT | IIIB | - | >125 µg/mL
COc1cc(Cc2cnc(/N=C3\C(=O)N(CN4CCCCC4)c4ccc(C)cc43)nc2N)cc(OC)c1OC | MT-4 | EC50 | cytopathic effect | - | - | >124.6 µM
Cc1ccccc1N1CCN(CCCCN2C(=O)C3C4CCC(C(=O)C4)C3C2=O)CC1 | MT-4 | EC50 | MTT | - | - | >100 µM
Nc1ccn([C@@H]2CC[C@H](CO)O2)c(=O)n1 | MT-4 | EC50 | MTT | RF | - | 3 µM
CC(C)(C)NCC(O)CN1C(=O)C2C3CCC(C(=O)C3)C2C1=O | MT-4 | EC50 | MTT | - | - | >100 µM
CCc1nc([N+](=O)[O-])c(N2CCN(C(=O)CSC)CC2)n1Cc1ccccc1.c1ccc2ccccc2c1 | MT-4 | EC50 | syncytia | IIIB | - | >4.48 µg/mL
O=P(O)(O)OP(=O)(O)OP(=O)(O)O | MOLT-4/MOLT-3 | EC50 | syncytia | IIIB | - | >160 µg/mL
CCc1nc([N+](=O)[O-])c(N2CCN(C(=O)c3ccc(Cl)cc3)CC2)n1Cc1ccccc1 | MT-4 | EC50 | syncytia | IIIB | - | >21.2 µg/mL
CCCCCCCCCC[N+](C)(C)CCCNCc1c(O)cc2c(c1O)-c1cc(ccc1O)[C@H]1NC(=O)[C@@H]3NC(=O)C4NC(=O)[C@@H](Cc5ccc(c(Cl)c5)Oc5cc3cc(c5O)Oc3ccc(cc3Cl)[C@@H](O)[C@H](NC1=O)C(=O)N[C@@H]2C(=O)O)NC(=O)[C@H](N)c1ccc(O)c(c1)Oc1cc(O)cc4c1 | CEM | EC50 | syncytia | HE | - | 9.5 µM
CCN(CC)CC(O)CN1C(=O)C2C3CCC(C(=O)C3)C2C1=O | MT-4 | EC50 | MTT | - | - | >100 µM
C=CCOC(=O)N(CCc1ccccc1)C[C@H](O)CN(CC1CCCC1)S(=O)(=O)c1ccc(OC)cc1 | CEM | EC90 | p24 | IIIB | - | 0.1 µM
COc1ccnc2[nH]cc(C(=O)C(=O)N3C4CCC3CN(C(=O)c3ccccc3)C4)c12 | TZM-bl | EC90 | luciferase | QH0692 | - | 56 µM
COc1cc(Cc2cnc(/N=C3\C(=O)N(CN4CCCC4)c4ccc(C)cc43)nc2N)cc(OC)c1OC | MT-4 | EC50 | cytopathic effect | - | - | >124 µM
CC1(Cc2ccccc2)OS(=O)(=O)C=C1N | MT-4 | EC50 | cytopathic effect / MTT | IIIB | - | >125 µg/mL
O=C(O)c1cc(O)c(O)c(Oc2c(C(=O)OC3C(OC(=O)c4cc(O)c(O)c(O)c4)OC4COC(=O)c5cc(O)c(O)c(O)c5-c5c(cc(O)c(O)c5O)C(=O)OC4C3OC(=O)c3cc(O)c(O)c(O)c3)cc(O)c(O)c2O)c1 | MT-4 | EC50 | cytopathic effect / MTT | IIIB | - | >50 µg/mL
O=C1CC2CCC1C1C(=O)N(CCCBr)C(=O)C21 | MT-4 | EC50 | MTT | - | - | >100 µM
CC1=C(N)C(C)(Cc2ccccc2)OS1(=O)=O | MT-4 | EC50 | cytopathic effect / MTT | IIIB | - | >125 µg/mL
O=C(O)C(=O)/C=C(\O)c1cc(Cc2ccccc2)cn(Cc2ccccc2)c1=O | PBMC | EC50 | - | NL4-3 | - | 0.61 µM
CCc1nc([N+](=O)[O-])c(N2CCN(C(=O)c3ccc(OC)cc3)CC2)n1Cc1ccccc1 | MT-4 | EC50 | syncytia | IIIB | - | >64.7 µg/mL
Cc1cnc(NC(=O)NC(C)(C)C)n1CC(O)CN(CC(C)C)S(=O)(=O)c1ccccc1 | CEM | EC50 | p24 | IIIB | - | <1 µM
O=C(O[C@@H]1O[C@@H]2COC(=O)c3cc(O)c(O)c(O)c3-c3c(cc(O)c(O)c3O)C(=O)O[C@H]2[C@@H]2OC(=O)c3cc(O)c(O)c(O)c3-c3c(cc(O)c(O)c3O)C(=O)O[C@@H]12)c1cc(O)c(O)c(O)c1 | MT-4 | EC50 | cytopathic effect / MTT | IIIB | - | >25 µg/mL
O=C(c1ccccc1)N(CCc1ccccc1)C[C@H](O)CN(CC1CCCC1)S(=O)(=O)c1ccncc1 | CEM | EC90 | p24 | IIIB | - | 1 µM
Oc1cc(O)c2c(c1)O[C@H](c1cc(O)c(O)c(O)c1)[C@H](O)C2 | MT-4 | EC50 | cytopathic effect / MTT | IIIB | - | >25 µg/mL

For reference, 3 entries again:

{"structure": "CC(C)(C)NCC(O)CN1C(=O)C2C3CCC(C(=O)C3)C2C1=O", "cell line": "MT-4", "measure": "EC50", "method": "MTT", "value": ">100 µM"}
{"structure": "CCc1nc([N+](=O)[O-])c(N2CCN(C(=O)c3ccc(Cl)cc3Cl)CC2)n1Cc1ccccc1", "cell line": "MT-4", "measure": "EC50", "method": "syncytia", "strain or isolate": "IIIB", "value": ">14.6 µg/mL"}
{"structure": "O=P(O)(O)OP(=O)(O)OP(=O)(O)O", "cell line": "MOLT-4/MOLT-3", "measure": "EC50", "method": "syncytia", "strain or isolate": "IIIB", "value": ">160 µg/mL"}

ECn: concentration that inhibits the pathogen or its effect by n%. Blank or dashed fields: not listed here.